Data as given in PubChem BioAssay AID624099 (ICCB-Longwood, 2012).

- Assay: 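Host factors E2 relies on to silence an HPV18 LCR reporter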 (primary screen)
- System: human C33A cervical carcinoma cells (HPV-negative) stably expressing BPV1 E2 and an HPV18 LCR luciferase reporter
- Reagent: siRNA pool against human genes, 40 nM
- Timing: 72 h
- Measurement: 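Per-well luciferase luminescence, z-scored on each plate against the plate mean and SD with control wells left out, then averaged across three replicate plates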
- Scale: mean z-score and z-score: higher = stronger reporter signal, weaker E2 silencing
- Rule for the call: 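Hit if mean z-score reaches 2 and two or more of three replicate z-scores also reach 2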
Here is a random part of about 21,000 deposited reagents. Of all reagents, 497 (2.4%) got an active call. 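Higher z means weaker E2 silencing; only reporter increases were scored, and knock-downs that hurt cell survival may mask genuine repressor factors.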 Reagent sequences are not shown.

Knock-down of C16orf86 gave: mean z-score -0.3; z-score, replicate A = -0.02; z-score, replicate B = -0.39; z-score, replicate C = -0.5; inactive.
For NOX4P1, the entry reads mean z-score 1.5; z-score, replicate A = 1.86; z-score, replicate B = 1.14; z-score, replicate C = 1.49; inactive.
After knock-down of CPSF3 the results were mean z-score 0.89; z-score, replicate A = 0.94; z-score, replicate B = 0.87; z-score, replicate C = 0.88; inactive.
Against MTRR the deposit lists mean z-score 0.15; z-score, replicate A = -0.05; z-score, replicate B = -0.08; z-score, replicate C = 0.59; inactive.
After knock-down of UQCRC1, the screen gave mean z-score -0.56; z-score, replicate A = -0.44; z-score, replicate B = -0.47; z-score, replicate C = -0.77; inactive.
With knock-down of NGEF the results were mean z-score 1.31; z-score, replicate A = 1.45; z-score, replicate B = 1.13; z-score, replicate C = 1.36; inactive.
PHIP scored mean z-score -0.72; z-score, replicate A = -0.63; z-score, replicate B = -0.81; z-score, replicate C = -0.72; inactive.
Depletion of OXCT2 gave: mean z-score 1.41; z-score, replicate A = 0.77; z-score, replicate B = 1.55; z-score, replicate C = 1.93; inactive.
ZNF677 gave mean z-score -0.73; z-score, replicate A = -0.76; z-score, replicate B = -0.48; z-score, replicate C = -0.95; inactive.
Knock-down of NCBP2L came out at: mean z-score -0.11; z-score, replicate A = 0.5; z-score, replicate B = -0.27; z-score, replicate C = -0.56; inactive.
Silencing of CHCHD3 resulted in: mean z-score 1.19; z-score, replicate A = 1.19; z-score, replicate B = 1.08; z-score, replicate C = 1.3; inactive.
With knock-down of LOC388923 (retired record), the record shows mean z-score -0.79; z-score, replicate A = -0.85; z-score, replicate B = -0.63; z-score, replicate C = -0.89; inactive.
Depletion of LOC391426 (retired record) resulted in: mean z-score 0.82; z-score, replicate A = 0.57; z-score, replicate B = 1.08; z-score, replicate C = 0.81; inactive.
Knock-down of ARTN gave: mean z-score -1.5; z-score, replicate A = -1.45; z-score, replicate B = -1.59; z-score, replicate C = -1.45; inactive.
Against FRY the deposit lists mean z-score -0.05; z-score, replicate A = -0.35; z-score, replicate B = 0.17; z-score, replicate C = 0.04; inactive.
Depletion of LHX9 came out at: mean z-score 0.64; z-score, replicate A = 0.86; z-score, replicate B = 0.26; z-score, replicate C = 0.82; inactive.
With knock-down of BMS1P1, the record shows mean z-score 0.31; z-score, replicate A = 0.15; z-score, replicate B = -0.09; z-score, replicate C = 0.86; inactive.
With knock-down of WAC, the screen gave mean z-score -0.43; z-score, replicate A = -0.09; z-score, replicate B = -0.36; z-score, replicate C = -0.85; inactive.
Depletion of RPL4P5 resulted in: mean z-score -3.55; z-score, replicate A = -3.6; z-score, replicate B = -4.1; z-score, replicate C = -2.95; inactive.
Depletion of LOC389300 (retired record) resulted in: mean z-score -1.07; z-score, replicate A = -1.15; z-score, replicate B = -0.75; z-score, replicate C = -1.32; inactive.
Knock-down of IDI2 came out at: mean z-score -0.56; z-score, replicate A = -0.89; z-score, replicate B = -0.58; z-score, replicate C = -0.21; inactive.

Only “z-score, replicate C”, for 2 of the entries above:
NGEF	1.36
PHIP	-0.72
